Measured values from several laboratories, pooled; numbers as filed in NIAID ChemDB.

Common to all: tests in culture; agent: Candida albicans; endpoint: MIC

Lines come from different laboratories, so protocols vary.

compound | strain or isolate | method | value
COc1cc2c(ccc3cc(OC)c(O)c(OC)c32)cc1O |  |  | 50 µg/mL
COc1ccc(/C(=N/O)c2oc3ccccc3c2C)cc1 |  |  | 4 µg/mL
COc1cc2c(cc1O)CCc1cc(OC)c(OC)c(O)c1-2 |  |  | 50 µg/mL
COc1ccc(/C(=N\OCc2ccc(Cl)cc2)c2oc3ccccc3c2C)cc1 |  |  | 128 µg/mL
CC(=O)N1CCN(c2ccc(OC[C@H]3CO[C@](Cn4ccnc4)(c4ccc(Cl)cc4Cl)O3)cc2)CC1 | ATCC 10231 | broth dilution | 30 µg/mL
CCN(CC)C(=O)CC1C(=O)OC(C)(C)CN1CC | SC5314 | broth dilution | >50 µg/mL
CC(C)[C@@H](C)C1OC1[C@@H](C)C1[C@@H](O)C[C@]2(O)C3=CC=C4C[C@@H](O)CC[C@]4(C)C3[C@H](O)C(=O)[C@]12C |  | agar | 3.3 µM
CC(=O)Cc1nc2ccccc2n1CC(O)(Cn1cncn1)c1ccc(F)cc1F |  |  | 6.25–12.5 µg/mL
CCN1CC(C)(C)OC(=O)C1CC(=O)N1CCOCC1 | SC5314 | broth dilution | >50 µg/mL
C[C@H]1[C@H](O)[C@@H](C)/C=C/C=C/C=C/C=C/C=C/C=C/C=C/[C@H](O[C@@H]2O[C@H](C)[C@@H](O)[C@H](N)[C@@H]2O)C[C@@H]2O[C@](O)(C[C@@H](O)C[C@@H](O)CC[C@H](O)[C@@H](O)C[C@@H](O)CC(=O)O[C@H]1C)C[C@H](O)[C@H]2C(=O)O |  |  | 5 µg/mL
CCOc1cc2c(cc1F)n([O-])c(C)c(Cl)[n+]2=O | Clinical isolate 5 |  | 31.25 µg/mL
CCCCCCCCCCCOC[n+]1cccc(NCNc2ccc[n+](COCCCCCCCCCCC)c2)c1 | ATCC 10231 |  | 195 µM
CCOC(=O)c1cc(C)nc2sc3c(Cl)nnnc3c12 |  |  | 25–100 µg/mL
CN1O[C@H](CSc2ccc(F)cc2)C[C@]1(c1ccc(Cl)cc1)n1ccnc1 | ATCC10259 |  | 7 µg/mL
CC(n1ncn(-c2ccc(-n3ccnn3)cc2)c1=O)C(O)(Cn1cncn1)c1ccc(F)cc1F | TA |  | 0.03 µg/mL
Clc1nnnc2c1sc1ncccc12 |  |  | 25 µg/mL
Cc1ccc(SC[C@@H]2C[C@](c3ccc(Cl)cc3)(n3ccnc3)N(C)O2)cc1 | ATCC10259 |  | 20 µg/mL
CC(=O)OC1C(=O)N(c2ccccc2)C1c1ccc([N+](=O)[O-])cc1 | SH/T54 |  | 18.4 µM
Cc1ccc(N2N=C(c3c[nH]c4ccccc34)CC2c2ccc(Cl)cc2Cl)cc1 | ATCC 90028 | broth dilution | 200 µg/mL
CCCCCCCCOC[n+]1cccc(NCn2nnc3ccccc32)c1 | ATCC 10231 |  | 620 µM
OC(Cn1cncn1)(Cn1ccnc1-c1ccccc1)c1ccc(F)cc1F |  |  | <3.125 µg/mL
Cc1ccc(-c2cc(C=O)no2)cc1 |  |  | 50 µg/mL
Cc1ccc(N2N=C(c3c[nH]c4ccccc34)CC2c2cc(Cl)ccc2Cl)cc1 | ATCC 90028 | broth dilution | 200 µg/mL
CN1O[C@H](CSc2ccc(Cl)cc2)C[C@]1(c1ccc(Cl)cc1)n1ccnc1 | ATCC10259 |  | 7 µg/mL
OC(c1ccc(Cl)cc1)c1nccn1CC(O)(Cn1cncn1)c1ccc(F)cc1F |  |  | 25–50 µg/mL
O=C1C(OS(=O)(=O)c2ccc(Br)cc2)C(c2ccccc2)N1c1ccccc1 | SH/T54 |  | 13.08 µM
CC(N1CCN(c2ccc(-n3ccnc3)cc2)C1=O)C(O)(Cn1cncn1)c1ccc(F)cc1F | TA |  | 0.004 µg/mL
C[C@H]1[C@H](O)[C@@H](C)/C=C/C=C/C=C/C=C/C=C/C=C/C=C/[C@H](O[C@@H]2O[C@H](C)[C@@H](O)[C@H](N)[C@@H]2O)C[C@@H]2O[C@](O)(C[C@@H](O)C[C@@H](O)CC[C@H](O)[C@@H](O)C[C@@H](O)CC(=O)O[C@H]1C)C[C@H](O)[C@H]2C(=O)O | 2381E |  | 0.008 µg/mL
CC(=O)OC1C(=O)N2CCCSC12c1ccccc1 | SH/T54 |  | 45.12 µM
COc1cc(OC)c2c(ccc3cc(O)c(O)cc32)c1 |  |  | 50 µg/mL
Cc1ccc(/C(=N\OCc2ccccc2)c2oc3ccccc3c2C)cc1 |  |  | >512 µg/mL
CC(C)=C[C@H]1C[C@](C)(O)C2C3CCC4[C@@]5(C)CCC[C@](C)(O[C@H]6OC[C@H](O)[C@H](OC7O[C@H](CO)[C@@H](O)[C@H](O)[C@H]7OC(=O)/C=C/c7ccc(O)cc7)[C@H]6O[C@H]6C[C@H](CO)[C@@H](O)[C@@H]6O)C5CC[C@@]4(C)[C@@]34CO[C@@]2(C4)O1 |  |  | >50 µg/mL
CC(N1CCN(c2ccc(-n3cnnn3)cc2)C1=O)C(O)(Cn1cncn1)c1ccc(F)cc1F | TIMM1850 |  | 0.004 µg/mL
CCCCCCCCCCCCOCn1c[n+](CNC(=O)c2cccnc2)c2ccccc21 | ATCC 10231 |  | >1028 µM
COc1cc(/C=C/C=C/C=C/C2C=CC=N2)oc(=O)c1.COc1cc(/C=C/C=C/C=C/C2C=CC=N2)oc(=O)c1 |  | agar | >100 µM
CCCCCCCCCCCOCn1c[n+](CNC(=O)c2cccnc2)c2ccccc21 | ATCC 10231 |  | 265 µM
O[C@](Cn1cncn1)(Cn1cnc(/C=C/c2ccc(OCC(F)(F)C(F)F)cc2)n1)c1ccc(F)cc1F | 10 isolates fluconazole-resistant |  | 0.03–1 µg/mL
CC(C)c1ccc(NC(=O)CC2C(=O)OC(C)(C)CN2CCF)cc1 | SC5314 | broth dilution | >25 µg/mL
CCCCCOc1ccc(-c2ccc(-c3ccc(C(=O)N[C@H]4C[C@@H](O)[C@@H](O)NC(=O)[C@@H]5[C@@H](O)[C@@H](C)CN5C(=O)[C@H]([C@H](C)O)NC(=O)[C@H]([C@H](O)[C@@H](O)c5ccc(O)cc5)NC(=O)[C@@H]5C[C@@H](O)CN5C(=O)[C@H]([C@H](C)O)NC4=O)cc3)cc2)cc1 |  |  | 9 µg/mL
CC(=O)N1CCN(c2ccc(OC[C@H]3CO[C@](Cn4ccnc4)(c4ccc(Cl)cc4Cl)O3)cc2)CC1 | 2381E |  | 0.002 µg/mL
O=C(/C=C/c1cc(Cl)cc(Cl)c1)c1c[nH]c2ccccc12 | ATCC 90028 | broth dilution | 200 µg/mL
COc1cc(OC)c2c(ccc3c(O)c(O)c(O)cc32)c1 |  |  | 50 µg/mL
O=Cc1cc(-c2ccccc2Cl)on1 |  |  | 25 µg/mL
CN(CCCC#CC(C)(C)C)c1cccc2c1CCC(=O)N2 | Clinical isolate 21 |  | 62.5 µg/mL
Cc1ccc(C(C)C)cc1O | ATCC 10231 |  | 0.16 µg/mL
Cc1ccc(N/N=c2/sc3nnc(-c4ccncc4)n3nc2C)cc1 | ATCC 66027 | broth dilution | >100 µg/mL
Cc1ccc(SC[C@@H]2C[C@](c3ccccc3)(n3ccnc3)N(C)O2)cc1 | ATCC10259 |  | 7 µg/mL
OC(Cn1cncn1)(Cn1c(/C=C/c2ccccc2)nc2ccccc21)c1ccc(F)cc1F |  |  | 3.125–6.25 µg/mL
CCN1CC(C)(C)OC(=O)C1CC(=O)Nc1c(C)noc1C | SC5314 | broth dilution | >50 µg/mL
COc1ccc(/C(=N\OC(=O)c2ccccc2)c2oc3ccccc3c2C)cc1 |  |  | >512 µg/mL
Cc1onc(-c2ccc(Cl)cc2)c1C=O |  |  | 50 µg/mL
C[C@H]1N(C(=O)c2ccc(C(F)(F)F)cc2)C[C@@H](O)O[C@@]1(Cn1cncn1)c1ccc(F)cc1F | Isolate 1 |  | >64 µg/mL
CC(C)c1ccc(NC(=O)CC2C(=O)OC(C)(C)CN2Cc2ccccc2)cc1 | SC5314 | broth dilution | >25 µg/mL
CCCCCCCCCCOC[n+]1cccc(NCn2nnc3ccccc32)c1 | ATCC 10231 |  | 144 µM
CCOc1cc2c(cc1F)n([O-])c(C)c(S(=O)(=O)c1ccccc1)[n+]2=O | Clinical isolate 8 |  | 15.6 µg/mL
CC(n1ncn(-c2ccc(-n3cncn3)cc2)c1=O)C(O)(Cn1cncn1)c1ccc(F)cc1F | TA |  | 0.03 µg/mL
Cc1c(/C(=N/OCc2ccc(Cl)cc2)c2ccc(Cl)cc2)oc2ccccc12 |  |  | >512 µg/mL
CC(=O)N1CC(C)(C)OC(=O)C1CC(=O)Nc1ccc(C(C)C)cc1 | SC5314 | broth dilution | >25 µg/mL
Cc1c(Cl)[n+](=O)c2cc(Cl)ccc2n1[O-] | Clinical isolate 22 |  | 7.8 µg/mL
COC(=O)c1ccc(N2C(=O)C(OS(=O)(=O)c3ccc(C)cc3)C2c2ccc(OC)cc2)cc1 | SH/T54 |  | 24.17 µM
CC(n1ncn(-c2ccc(-n3ncnn3)cc2)c1=O)C(O)(Cn1cncn1)c1ccc(F)cc1F | TA |  | 0.002 µg/mL
COc1ccc(N2C(=O)C(O)C2c2ccccc2)cc1 | SH/T54 |  | 46.45 µM
Cc1nn2c(-c3ccncc3)nnc2s/c1=N/Nc1ccc(F)cc1 | ATCC 66027 | broth dilution | 50 µg/mL

The first 5 rows once more:

compound,strain or isolate,method,value
COc1cc2c(ccc3cc(OC)c(O)c(OC)c32)cc1O,,,50 µg/mL
COc1ccc(/C(=N/O)c2oc3ccccc3c2C)cc1,,,4 µg/mL
COc1cc2c(cc1O)CCc1cc(OC)c(OC)c(O)c1-2,,,50 µg/mL
COc1ccc(/C(=N\OCc2ccc(Cl)cc2)c2oc3ccccc3c2C)cc1,,,128 µg/mL
CC(=O)N1CCN(c2ccc(OC[C@H]3CO[C@](Cn4ccnc4)(c4ccc(Cl)cc4Cl)O3)cc2)CC1,ATCC 10231,broth dilution,30 µg/mL

a–b is a range or a potency band. An empty or dashed field is not shown.